# Values quoted from earlier work, collected in publication PMC3707847 (PLoS ONE, 2013).
# Tested on: RNA polymerase of hepatitis C virus
# Settings: cited from earlier work
smiles,measurement,value
Nc1ncnc2c1ncn2[C@@H]1O[C@H](COP(=O)(O)OP(=O)(O)OP(=O)(O)O)[C@@H](O)[C@H]1O [ATP],"Error rate of HCV RNA polymerase, A:C mismatch",2.3×10^−6
Nc1nc2c(ncn2[C@@H]2O[C@H](COP(=O)(O)OP(=O)(O)OP(=O)(O)O)[C@@H](O)[C@H]2O)c(=O)[nH]1 [GTP],"Error rate of HCV RNA polymerase, G:U mismatch",8.7×10^−3
